Test results: patent US12577587B2 (priority 2009, dated 2026)

Assays:
EF2 [1] = molecular target: T1, EF2 (Homo sapiens, UniProt P13639); assay type: cell-based
EF2 [2] = molecular target: T1, EF2; assay type: biochemical

## Diphtheria toxin
EF2 [1]
  EF-2 mobility shift (ADP-ribosylation): mobility shift of EF-2
EF2 [2]
  EF2 ribosylation: impaired
